A mixed list of measured activities; the numbers were collected in NIAID ChemDB.

All rows: enzyme or target tests

Inhibition is in % at the dose shown (toxicity tests: loss of growth or viability).

compound,strain,read by,species,dose,protein,mutations,measure,value
COC(=O)c1cc(=O)c(O)c2n1CCN(Cc1ccc(Cl)c(Cl)c1)C2=O,-,ELISA,HIV-1,-,Integrase,-,IC50,0.01–0.1 µM
CC(C)(C#Cc1ccc(NC(=O)CSc2nnc(C(F)(F)F)n2-c2ccc(C3CC3)cc2Cl)c(Cl)c1)C(=O)O,-,PicoGreen / fluorescence,HIV-1,-,Reverse transcriptase,RT-K103 Y181C,IC50,<1 µM
O=C(NC(Cc1ccccc1)c1ccccc1)c1cn2c(c(O)c1=O)C(=O)N(Cc1cccc(Cl)c1)CC2,-,ELISA,HIV-1,-,Integrase,-,IC50,0.01–0.1 µM
CC(C)(C)NC(=O)[C@@H]1CCCN1C(=O)[C@@H](O)[C@H](Cc1ccccc1)NC(=O)[C@H](CC(N)=O)NC(=O)OCc1cccc2ccccc12,-,-,HIV-1,5 µM,Protease,-,inhibition,98.6%
CC(C)N1CCn2c(nc(C(=O)NCc3ccc(F)cc3)c(O)c2=O)C(N(C)C(=O)C(=O)N(C)C)C1,-,ELISA,HIV-1,-,Integrase,-,IC50,<10 µM
CCN1c2ncc(CCOc3ccc(/C=C(\C)C(=O)O)c4ccccc34)cc2C(=O)N(C)c2ccc(C)nc21,-,nucleotide incorporation / radiometric,HIV-1,-,Reverse transcriptase,RT-K103N Y181C,fold resistance,1–10
CC[C@@H](C)[C@H](NC(=O)[C@@H]1CCCN1C(=O)[C@@H](O)[C@H](Cc1ccccc1)NC(=O)[C@H](CC(N)=O)NC(=O)CCc1ccccc1)C(N)=O,-,-,HIV-1,-,Protease,-,IC50,~5 µM
Cc1ccc(Cl)cc1Nc1nc(C(F)(F)F)ccc1C(=O)NN1CCN(c2cccc(Cl)c2)CC1,-,RNase H / absorbance,HIV-1,-,RNase H,Y181C,fold resistance,3.1
CC(C)(C)NC(=O)[C@@H]1CCCN1C(=O)[C@@H](O)[C@H](CC1CCCCC1)NC(=O)[C@H](CC(N)=O)NC(=O)COc1cccc2ccccc12,-,-,HIV-1,0.05 µM,Protease,-,inhibition,79.5%
CC(C)(C#Cc1ccc(NC(=O)CSc2nnnn2-c2cc(C(F)(F)F)ccc2Cl)c(Cl)c1)NC(=O)C1CC1,-,PicoGreen / fluorescence,HIV-1,-,Reverse transcriptase,RT-K103 Y181C,IC50,<1 µM
COC(=O)[C@@H](NC(=O)[C@H](Cc1ccccc1)NC(=O)CC(=O)N[C@@H](Cc1ccccc1)C(=O)N[C@H](C(=O)OC)C(C)C)C(C)C,-,absorbance,HIV-1,10 µM,Protease,-,inhibition,<10%
CCN1c2ncc(CCOc3ccc(CCC(=O)O)c4c3CCCC4)cc2C(=O)N(C)c2cccnc21,-,nucleotide incorporation / radiometric,HIV-1,-,Reverse transcriptase,RT-Y188L,fold resistance,>10
Nc1ncnc2c1ncn2[C@H]1CC[C@@H](COP(=O)(O)OP(=O)(O)OP(=O)(O)OP(=O)(O)OC[C@@H]2CC[C@H](n3cnc4c(N)ncnc43)O2)O1,-,nucleotide incorporation / radiometric,HIV,-,Reverse transcriptase,RT-W88G,fold resistance,>2.3
Nc1nc2c(ncn2[C@H]2CC[C@@H](COP(=O)(O)OP(=O)(O)OP(=O)(O)O)O2)c(=O)[nH]1,-,nucleotide incorporation,HIV,-,Reverse transcriptase,RT-W266S,fold resistance,>41.7
Cc1ccc(-n2nnnc2SCC(=O)Nc2ccc(-c3ccc(CCO)cc3)cc2Cl)c(Cl)c1,WT,PicoGreen / fluorescence,HIV-1,-,Reverse transcriptase,-,IC50,<1 µM
COc1ccnc2[nH]cc(C(=O)C(=O)N3CCN(C(=O)c4ccccc4)C[C@H]3C)c12,LAI,ELISA,HIV-1,-,gp120,GP120-M426L,fold resistance,>91
Cc1cc(NC(=O)COc2ccc(NC(=O)CSc3nnnn3-c3ccc(C(C)(C)C)cc3Cl)c(Cl)c2)no1,WT,PicoGreen / fluorescence,HIV-1,-,Reverse transcriptase,-,IC50,<1 µM
Nc1ccn([C@@H]2CS[C@H](COP(=O)(O)OP(=O)(O)OP(=O)(O)O)O2)c(=O)n1,-,radiometric,HIV,-,Reverse transcriptase,RT-K65R K103N,Ki,1.184 µM
CCN1c2ncc(CCOc3ccc(NS(=O)(=O)C(F)(F)F)c4ccccc34)cc2C(=O)N(C)c2ccc(F)nc21,-,nucleotide incorporation / radiometric,HIV-1,-,Reverse transcriptase,RT-K103N Y181C,fold resistance,1–10
CC(C)(C)NC(=O)[C@@H]1CSCN1C(=O)[C@@H](O)[C@H](Cc1ccccc1)NC(=O)[C@@H](NC(=O)COc1cccc2ccccc12)C(C)(C)C,-,-,HIV-1,-,Protease,-,IC50,<0.05 µM
CCCOc1ccc(CN2CCn3cc(-c4nccs4)c(=O)c(O)c3C2=O)cc1Cl,-,ELISA,HIV-1,-,Integrase,-,IC50,0.01–0.1 µM
CC(C)(C)c1ccc(-n2nnnc2SCC(=O)Nc2ccc(OCC(=O)NCCc3ccncc3)cc2Cl)c(Cl)c1,-,PicoGreen / fluorescence,HIV-1,-,Reverse transcriptase,RT-K103 Y181C,IC50,<1 µM
O=C1c2c(O)c(=O)ccn2CCN1Cc1ccc(Cl)c(Cl)c1,-,ELISA,HIV-1,-,Integrase,-,IC50,<0.01 µM
CC(C)c1ccc(-n2nnnc2SCC(=O)Nc2ccc(-c3ccc(OCCN4CCCC4)cc3)cc2Cl)c(Br)c1,WT,PicoGreen / fluorescence,HIV-1,-,Reverse transcriptase,-,IC50,<1 µM
CN(C)C(=O)C(=O)N(C)C1CN(CCc2ccccc2)CCn2c1nc(C(=O)NCc1ccc(F)cc1)c(O)c2=O,-,ELISA,HIV-1,-,Integrase,-,IC50,<10 µM
CCOC(=O)C(=O)CC(=O)/C=C/c1cccn1Cc1ccc(C)cc1C,-,substrate cleavage / fluorescence,HIV-1,-,RNase H,Y501A,IC50,>100 µM
CC(C)(C)c1ccc(-n2nnnc2SCC(=O)Nc2ccc(C(=O)NCCN3CCOCC3)cc2Cl)c(Cl)c1,WT,PicoGreen / fluorescence,HIV-1,-,Reverse transcriptase,-,IC50,<1 µM
CCN1c2ncc(CCOc3ccc(CC(=O)O)c4ccccc34)cc2C(=O)Nc2c(C)cc(F)nc21,-,nucleotide incorporation / radiometric,HIV-1,-,Reverse transcriptase,RT-Y188L,fold resistance,>10
CCCC[C@H](NC(=O)[C@H](C)NC(=O)[C@H](CCC(=O)O)NC[C@H](Cc1ccccc1)NC(=O)[C@H](CC(C)C)NC(=O)[C@@H](NC(=O)[C@@H](N)CCCN=C(N)N)C(C)C)C(N)=O,-,HPLC,HIV,-,Protease,PR-M46L,IC50,<0.075 µM
CC(C)COC(=O)[C@H](Cc1ccc([N+](=O)[O-])cc1)NC(=O)C(=O)N[C@@H](Cc1ccc([N+](=O)[O-])cc1)C(=O)OCC(C)C,-,absorbance,HIV-1,10 µM,Protease,-,inhibition,49%
CC(C)(C#Cc1ccc(NC(=O)CSc2nnnn2-c2ccc(C3CC3)cc2Cl)c(Cl)c1)NC(=O)CN1CCNCC1,WT,PicoGreen / fluorescence,HIV-1,-,Reverse transcriptase,-,IC50,<1 µM
CN(C)C(=O)C(=O)N1CCn2c(nc(C(=O)NCc3ccc(F)cc3)c(O)c2=O)C1(C)C,-,ELISA,HIV-1,-,Integrase,-,IC50,<10 µM
CC(C)(C#Cc1ccc(NC(=O)CSc2nnnn2-c2ccc(C3CC3)cc2Cl)c(Cl)c1)C(=O)N1CCC(C(=O)O)CC1,-,PicoGreen / fluorescence,HIV-1,-,Reverse transcriptase,RT-K103 Y181C,IC50,<1 µM
Cc1cn([C@H]2CC[C@@H](COP(=O)(O)OP(=O)(O)OP(=O)(O)OP(=O)(O)OC[C@@H]3CC[C@H](n4cc(C)c(=O)[nH]c4=O)O3)O2)c(=O)[nH]c1=O,-,nucleotide incorporation / radiometric,HIV,-,Reverse transcriptase,RT-M41L T215Y,fold resistance,0.38
O=C(/C=C/c1cccn1Cc1ccccc1Cl)CC(=O)C(=O)O,-,substrate cleavage / fluorescence,HIV-1,-,RNase H,Q475A,IC50,6.3 µM
COC(=O)Cc1ccc(-c2ccc(NC(=O)CSc3nnnn3-c3ccc(C)cc3Cl)c(Cl)c2)cc1,WT,PicoGreen / fluorescence,HIV-1,-,Reverse transcriptase,-,IC50,<1 µM
Cc1ccc(Cl)cc1Nc1nc(C(F)(F)F)ccc1C(=O)NN1CCN(c2ccccc2)CC1,-,RNase H / absorbance,HIV-1,-,RNase H,-,IC50,>100 µM
CC(C)COC(=O)[C@H](Cc1ccc(OCc2ccccc2)cc1)NC(=O)C(=O)N[C@@H](Cc1ccc(OCc2ccccc2)cc1)C(=O)OCC(C)C,-,absorbance,HIV-1,10 µM,Protease,-,inhibition,24%
CCN(CC)CC#Cc1ccc(NC(=O)CSc2nnnn2-c2ccc(C(C)(C)C)cc2Cl)c(Cl)c1,WT,PicoGreen / fluorescence,HIV-1,-,Reverse transcriptase,-,IC50,<1 µM
Cc1cn([C@H]2CC[C@@H](COP(=O)(O)OP(=O)(O)OP(=O)(O)O)O2)c(=O)[nH]c1=O,-,nucleotide incorporation / radiometric,HIV,-,Reverse transcriptase,RT-W88G,fold resistance,3.45
CCOC(=O)C(=O)CC(=O)/C=C/c1cc(-c2ccccc2)cn1Cc1ccc(F)cc1,-,substrate cleavage / fluorescence,HIV-1,100 µM,RNase H,Q475A,inhibition,17%
CC(C)(N)C#Cc1ccc(NC(=O)CSc2nnnn2-c2cc(C(F)(F)F)ccc2Cl)c(Cl)c1F,WT,PicoGreen / fluorescence,HIV-1,-,Reverse transcriptase,-,IC50,<1 µM
Nc1ncnc2c1ccn2[C@H]1C[C@H](F)[C@@H](COP(=O)(O)OP(=O)(O)OP(=O)(O)O)O1,-,nucleotide incorporation / radiometric,HIV,-,Reverse transcriptase,RT-D67N K70R T215Y K219Q,fold resistance,1.45
CC(C)(C#Cc1ccc(NC(=O)CSc2nnnn2-c2cc(Cl)ccc2Cl)c(Cl)c1)NC(=O)CN1CCNCC1,-,PicoGreen / fluorescence,HIV-1,-,Reverse transcriptase,RT-K103 Y181C,IC50,<1 µM
CC(C)COC(=O)[C@H](Cc1ccccc1)NC(=O)C(NC(=O)OC(C)(C)C)C(=O)N[C@@H](Cc1ccccc1)C(=O)OCC(C)C,-,absorbance,HIV-1,10 µM,Protease,-,inhibition,45%
CC(C)(C)C(=O)c1cn2ccn(CCCc3c(F)cccc3Cl)c(=O)c2c(O)c1=O,-,ELISA,HIV-1,-,Integrase,-,IC50,<0.01 µM
CC1(C)c2nc(C(=O)NCc3ccc(F)cc3)c(O)c(=O)n2CCN1S(C)(=O)=O,-,ELISA,HIV-1,-,Integrase,-,IC50,<10 µM
CC(C)(C)c1ccc(-n2nnnc2SCC(=O)Nc2ccc(-c3ccc(CCC(=O)O)cc3)cc2Cl)c(Cl)c1,-,PicoGreen / fluorescence,HIV-1,-,Reverse transcriptase,RT-K103 Y181C,IC50,<1 µM
CSC[C@H](NC(=O)COc1cccc2ccccc12)C(=O)N[C@@H](Cc1ccccc1)[C@H](O)C(=O)N1CSC(C)(C)[C@H]1C(=O)NC(C)(C)C,-,-,HIV-1,0.05 µM,Protease,-,inhibition,99.3%
O=C(NCc1ccncc1)c1cn2ccn(Cc3cccc(Cl)c3)c(=O)c2c(O)c1=O,-,ELISA,HIV-1,-,Integrase,-,IC50,0.01–0.1 µM
CC(C)NS(=O)(=O)c1ccc(NC(=O)CSc2nnnn2-c2ccc(C(C)(C)C)cc2Cl)c(Cl)c1,WT,PicoGreen / fluorescence,HIV-1,-,Reverse transcriptase,-,IC50,<1 µM
CC1(C)c2nc(C(=O)NCc3ccc(F)cc3)c(O)c(=O)n2CCN1CC(=O)O,-,ELISA,HIV-1,-,Integrase,-,IC50,<10 µM
CC(C)(C#Cc1ccc(NC(=O)CSc2nnnn2-c2ccc(C3CC3)cc2Cl)c(Cl)c1)NC(=O)c1cc[n+]([O-])cc1,-,PicoGreen / fluorescence,HIV-1,-,Reverse transcriptase,RT-K103 Y181C,IC50,<1 µM
Nc1ccn([C@H]2CC[C@@H](COP(=O)(O)OP(=O)(O)OP(=O)(O)O)O2)c(=O)n1,-,nucleotide incorporation / radiometric,HIV,-,Reverse transcriptase,RT-D67N K70R T215Y K219Q,fold resistance,1.26
CC(C)(C)c1ccc(-n2nnnc2SCC(=O)Nc2ccc(NC(=O)Cc3ccc4ccoc4c3)cc2Cl)c(Cl)c1,WT,PicoGreen / fluorescence,HIV-1,-,Reverse transcriptase,-,IC50,<1 µM
CC(C)(C)NC(=O)[C@@H]1C[C@H](C2CCCCC2)CN1C(=O)[C@@H](O)[C@H](Cc1ccccc1)NC(=O)[C@H](CC(N)=O)NC(=O)OCc1ccccc1,-,-,HIV-1,-,Protease,-,IC50,>0.05 µM
CC(C)c1ccc(-n2nnnc2SCC(=O)Nc2ccc(C#CC(C)(C)C(=O)O)cc2Cl)c(Cl)c1,WT,PicoGreen / fluorescence,HIV-1,-,Reverse transcriptase,-,IC50,<1 µM
Cn1nccc1CN1CCn2c(nc(C(=O)NCc3ccc(F)cc3)c(O)c2=O)C1(C)C,-,ELISA,HIV-1,-,Integrase,-,IC50,<10 µM
O=c1c(-c2ccncn2)cn2ccn(Cc3cccc(F)c3)c(=O)c2c1O,-,ELISA,HIV-1,-,Integrase,-,IC50,0.01–0.1 µM
Cc1nnc(SCC(=O)Nc2ccc(-c3ccc(OCCN4CCCC4)cc3)cc2Cl)n1-c1ccc(C2CC2)cc1Cl,-,PicoGreen / fluorescence,HIV-1,-,Reverse transcriptase,RT-K103 Y181C,IC50,<1 µM

5 of the rows above, restated:

compound	strain	read by	species	dose	protein	mutations	measure	value
Cc1cn([C@H]2CC[C@@H](COP(=O)(O)OP(=O)(O)OP(=O)(O)OP(=O)(O)OC[C@@H]3CC[C@H](n4cc(C)c(=O)[nH]c4=O)O3)O2)c(=O)[nH]c1=O	-	nucleotide incorporation / radiometric	HIV	-	Reverse transcriptase	RT-M41L T215Y	fold resistance	0.38
COC(=O)c1cc(=O)c(O)c2n1CCN(Cc1ccc(Cl)c(Cl)c1)C2=O	-	ELISA	HIV-1	-	Integrase	-	IC50	0.01–0.1 µM
Cc1ccc(-n2nnnc2SCC(=O)Nc2ccc(-c3ccc(CCO)cc3)cc2Cl)c(Cl)c1	WT	PicoGreen / fluorescence	HIV-1	-	Reverse transcriptase	-	IC50	<1 µM
Nc1ncnc2c1ncn2[C@H]1CC[C@@H](COP(=O)(O)OP(=O)(O)OP(=O)(O)OP(=O)(O)OC[C@@H]2CC[C@H](n3cnc4c(N)ncnc43)O2)O1	-	nucleotide incorporation / radiometric	HIV	-	Reverse transcriptase	RT-W88G	fold resistance	>2.3
CC(C)(C#Cc1ccc(NC(=O)CSc2nnnn2-c2ccc(C3CC3)cc2Cl)c(Cl)c1)NC(=O)CN1CCNCC1	WT	PicoGreen / fluorescence	HIV-1	-	Reverse transcriptase	-	IC50	<1 µM

Conditions beyond the fields shown may differ between rows. Fold resistance has wild type as its base. An empty or dashed field is not shown. ICn: concentration for n% inhibition. a–b is a range or a potency band.